Compound potency records, mixed from different reports. Data source: NIAID ChemDB in PubChem.

Shared fields: tests on isolated targets

Percent inhibition refers to the dose given; in toxicity tests it is the harm to the cells. ICn: concentration for n% inhibition. Blank or dashed fields: not listed here. Fold resistance: result on the changed form divided by that on wild type. Rows are shuffled and stem from different studies.

structure,protein,tested at,changes,read by,read-out,organism,result
Nc1ccn(C2OC(COP(=O)(O)OC3C(CO)OC(n4ccc(N)nc4=O)C3O)C(O)C2O)c(=O)n1,RNase H,50 µM,-,RNase H,inhibition,HIV-1,23%
O=C(OC[C@H]1O[C@@H](OCCc2ccc(O)cc2)[C@H](O)[C@@H](O)[C@@H]1O)c1cc(O)c(O)c(O)c1,RNase H,-,-,FRET,IC50,HIV-2,3.5 µM
CCCN(C[C@H](O)CN1C[C@H]2CCCC[C@H]2C[C@H]1C(=O)NC(C)(C)C)S(=O)(=O)c1ccc(OC)cc1,Protease,-,-,-,IC50,HIV,14.8 µM
Nc1nc2c(ncn2[C@H]2CO[C@@H](COP(=O)(O)OP(=O)(O)OP(=O)(O)O)O2)c(=O)[nH]1,Reverse transcriptase,-,RT-K65R,radiometric,fold resistance,HIV,1.8
Nc1nc2c(ncn2[C@@H]2O[C@H](CO)C(OP(O)(=S)OC[C@H]3O[C@@H](n4cnc5c(=O)[nH]c(N)nc54)[C@H](O)[C@@H]3O)C2O)c(=O)[nH]1,RNase H,50 µM,-,RNase H,inhibition,HIV-1,50%
NC[C@H]1O[C@H](O[C@H]2[C@H](O[C@@H]3O[C@H](CO)[C@@H](O)[C@H]3O)[C@@H](O)[C@H](N)C[C@@H]2N)[C@H](N)[C@@H](O)[C@@H]1O,Rev:RRE,100 µM,-,gel,inhibition,HIV-1,100%
O=CC1OC(=O)c2cc(O)c(O)c(O)c2Oc2cc3c(c(O)c2O)-c2c(cc(O)c(O)c2O)C(=O)OCC2OC(OC(=O)c4cc(O)c(O)c(O)c4Oc4cc5c(c(O)c4O)-c4c(cc(O)c(O)c4O)C(=O)OC(C(O)COC5=O)C1OC(=O)c1cc(O)c(O)c(O)c1)C(OC(=O)c1cc(O)c(O)c(O)c1)C(OC(=O)c1cc(O)c(O)c(O)c1)C2OC3=O,gp120,12.5 µg/mL,-,binding,inhibition,HIV-1,60.9%
Nc1nc2c(ncn2[C@@H]2O[C@H](COP(=O)(O)O[C@H]3[C@@H](F)[C@H](n4cnc5c(NCc6ccc7ccccc7c6)ncnc54)O[C@@H]3CO)[C@@H](O)[C@H]2O)c(=O)[nH]1,RNase H,50 µM,-,RNase H,inhibition,HIV-1,80%
NC[C@H]1O[C@H](O[C@H]2[C@H](O)[C@@H](O[C@H]3O[C@H](CO)[C@@H](O)[C@H](N)[C@H]3O)[C@H](N)C[C@@H]2N)[C@H](N)C[C@@H]1O,Rev:RRE,-,-,fluorescence,IC50,HIV-1,80 µM
CCCCCCCCC[C@H]1O[C@@H]1C(=O)O,Protease,-,-,HPLC,IC50,HIV-2,<500 µg/mL
CC(C)(C)NC(=O)[C@@H]1C[C@@H]2CCCC[C@@H]2CN1C[C@@H](O)CN(CCCc1ccccc1)S(=O)(=O)c1ccc(N)cc1,Protease,-,-,-,IC50,HIV,0.05 µM
CCCCN(CCCC)c1nc(OCCc2ccc([N+](=O)[O-])cc2)c2ncn([C@@H]3O[C@H](COP(O)(O)=S)[C@@H](O)[C@H]3O)c2n1,RNase H,50 µM,-,RNase H,inhibition,HIV-1,90%
O=C(OC[C@H]1O[C@@H](O)[C@@H]2OC(=O)c3cc(O)c(O)c(O)c3-c3c(cc(O)c(O)c3O)C(=O)O[C@H]2[C@@H]1OC(=O)c1cc(O)c(O)c(O)c1Oc1cc2c(c(O)c1O)-c1c(cc(O)c(O)c1O)C(=O)O[C@@H]1[C@@H](OC2=O)[C@H](OC(=O)c2cc(O)c(O)c(O)c2)O[C@@H]2COC(=O)c3cc(O)c(O)c(O)c3-c3c(cc(O)c(O)c3O)C(=O)O[C@@H]12)c1cc(O)c(OC(=O)c2cc(O)c(O)c(O)c2)c(O)c1,Capsid,-,-,antigen,IC50,HIV-1,1.8 µg/mL
NC(N)=NC[C@@H]1O[C@H](O[C@H]2[C@H](O)[C@@H](O[C@H]3O[C@@H](CO)[C@H](O)[C@@H](N=C(N)N)[C@@H]3O)[C@H](N=C(N)N)C[C@@H]2N=C(N)N)[C@@H](O)[C@H](O)[C@H]1O,Rev:RRE,-,-,fluorescence,IC50,HIV-1,3.5 µM
COC(=O)[C@]1(O)C[C@@H](O)[C@@H](O)[C@H](OC(=O)/C=C/c2ccc(O)c(O)c2)C1,RNase H,-,-,FRET,IC50,HIV-2,>20 µM
O=S(=O)(O)c1ccc2c(OS(=O)(=O)c3cccc4c(S(=O)(=O)O)cccc34)cc(S(=O)(=O)O)cc2c1,Protease,137 µM,-,fluorescence,inhibition,HIV,37%
O=CC(O)C(OC(=O)c1cc(O)c(O)c(O)c1)C1OC(=O)c2cc(O)c(O)c(O)c2-c2c(cc(O)c(O)c2O)C(=O)OCC1O,Capsid,-,-,antigen,IC50,HIV-1,6 µg/mL
CC(C)(C)NC(=O)[C@@H]1C[C@@H]2CCCC[C@@H]2CN1C[C@@H](O)CN(CCc1ccc2c(c1)OCO2)S(=O)(=O)c1ccc(N)cc1,Protease,-,-,-,IC50,HIV,1.78 µM
Nc1nc2c(ncn2[C@@H]2O[C@H](COP(=O)(O)O[C@H]3[C@@H](O)[C@H](n4cnc5c(=O)[nH]c(N)nc54)O[C@@H]3CO)[C@@H](O)[C@H]2O)c(=O)[nH]1,RNase H,50 µM,-,RNase H,inhibition,HIV-1,65%
COc1ccc(OC)c(C/C=C(\C)CC/C=C(\C)CC/C=C(\C)CC/C=C(\C)CC/C=C(\C)CCC=C(C)C)c1,Reverse transcriptase,-,-,nucleotide incorporation,IC50,HIV-2,10 µM
CC(C)(C)NC(=O)[C@@H]1C[C@@H]2CCCC[C@@H]2CN1C[C@@H](O)CN(CCc1cccc([N+](=O)[O-])c1)S(=O)(=O)c1ccc([N+](=O)[O-])cc1,Protease,-,-,-,IC50,HIV,33.16 µM
NC(N)=NC[C@H]1O[C@H](O[C@H]2[C@H](O)[C@@H](O[C@H]3O[C@@H](CO)[C@H](O)[C@@H](N=C(N)N)[C@@H]3O)[C@H](N=C(N)N)C[C@@H]2N=C(N)N)[C@H](N=C(N)N)C[C@@H]1O,Rev:RRE,-,-,fluorescence,IC50,HIV-1,3.8 µM
CC[C@H](C)[C@H](NC(=O)[C@@H]1CCCN1C(=O)[C@H](Cc1ccc(O)cc1)NC(=O)[C@@H](NC(=O)[C@H](CCC(N)=O)NC(=O)[C@@H](N)CO)C1CCCO1)C(=O)N[C@H](C(=O)O)C(C)C,Protease,0.05 µM,-,-,inhibition,HIV,82%
O=C(O[C@@H]1O[C@@H]2COC(=O)c3cc(O)c(O)c(O)c3-c3c(cc(O)c(O)c3O)C(=O)O[C@H]([C@H]1O)[C@@H]2O)c1cc(O)c(O)c(O)c1,gp120 + CD4,-,-,ELISA,IC50,HIV-1,0.5 µg/mL
CCCC(C)Nc1nc2c(ncn2[C@@H]2O[C@H](COP(O)(=S)O[C@H]3C[C@H](n4cnc5c(N)ncnc54)O[C@@H]3CO)[C@@H](O)[C@H]2O)c(=O)[nH]1,RNase H,50 µM,-,RNase H,inhibition,HIV-1,5%
COc1ccc(S(=O)(=O)N(CC(C)C)C[C@H](O)CN2C[C@H]3CCCC[C@H]3C[C@H]2C(=O)NC(C)(C)C)cc1,Protease,-,-,-,IC50,HIV,13.83 µM
O=C(O)c1cc(NS(=O)(=O)c2ccc(-c3ccc(S(=O)(=O)Nc4cc(C(=O)O)c(O)c(S(=O)(=O)O)c4)cc3)cc2)cc(S(=O)(=O)O)c1O,Protease,275 µM,-,fluorescence,inhibition,HIV,30%
CC(C)(O)[C@H]1CC=C(COC2O[C@@H](CO[C@H]3OC[C@H](O)[C@@H](O)[C@@H]3O)[C@H](O)[C@@H](O)[C@@H]2O)CC1,RNase H,-,-,FRET,IC50,HIV-2,>20 µM
NOCc1c(F)cccc1Cl,gp120,4 µg/mL,-,ELISA,inhibition,HIV-1,10%
Oc1cc(O)c2c(c1)O[C@H](c1cc(O)c(O)c(O)c1)[C@H](O)C2,RNase H,-,-,FRET,IC50,HIV-2,>20 µM
CCCC(C)Nc1nc(OCCc2ccc([N+](=O)[O-])cc2)c2ncn([C@@H]3O[C@H](COP(O)(=S)O[C@H]4C[C@H](n5cnc6c(N)ncnc65)O[C@@H]4CO)[C@@H](O)[C@H]3O)c2n1,RNase H,50 µM,-,RNase H,inhibition,HIV-1,100%
CN[C@@H]1[C@H](O)[C@H](NC)[C@H]2O[C@@]3(O)C(=O)C[C@@H](C)O[C@H]3O[C@@H]2[C@H]1O,Rev:RRE,100 µM,-,gel,inhibition,HIV-1,0%
NC(N)=NC[C@@H]1O[C@H](O[C@H]2[C@H](O)[C@@H](O[C@H]3O[C@@H](CO)[C@H](O)[C@@H](N=C(N)N)[C@@H]3O)[C@H](N=C(N)N)C[C@@H]2N=C(N)N)[C@@H](N=C(N)N)[C@H](O)[C@H]1O,Rev:RRE,-,-,fluorescence,IC50,HIV-1,44 µM
Nc1nc(OCCc2ccc([N+](=O)[O-])cc2)c2ncn([C@@H]3O[C@H](COP(O)(=S)O[C@H]4[C@@H](F)[C@H](n5cnc6c(N)ncnc65)O[C@@H]4CO)[C@@H](O)[C@H]3O)c2n1,RNase H,50 µM,-,RNase H,inhibition,HIV-1,69%

A second listing of 3 rows from above:

structure | protein | tested at | changes | read by | read-out | organism | result
CC(C)(O)[C@H]1CC=C(COC2O[C@@H](CO[C@H]3OC[C@H](O)[C@@H](O)[C@@H]3O)[C@H](O)[C@@H](O)[C@@H]2O)CC1 | RNase H | - | - | FRET | IC50 | HIV-2 | >20 µM
O=S(=O)(O)c1ccc2c(OS(=O)(=O)c3cccc4c(S(=O)(=O)O)cccc34)cc(S(=O)(=O)O)cc2c1 | Protease | 137 µM | - | fluorescence | inhibition | HIV | 37%
CCCCN(CCCC)c1nc(OCCc2ccc([N+](=O)[O-])cc2)c2ncn([C@@H]3O[C@H](COP(O)(O)=S)[C@@H](O)[C@H]3O)c2n1 | RNase H | 50 µM | - | RNase H | inhibition | HIV-1 | 90%